Anti-infective test results gathered from many reports (values: NIAID ChemDB through PubChem).

Common to all: tests in culture; species: HIV-1; read by: p24; measure: EC50

a–b is a range or a potency band.

SMILES,conditions,strain or isolate,cells,mutations,result
CC(C)(CN1CCCCC1)NC(=O)[C@]12CC[C@@H](C3(C)CC3)[C@@H]1[C@H]1CC[C@@H]3[C@@]4(C)CC[C@H](OC(=O)CC(C)(C)C(=O)O)C(C)(C)[C@@H]4CC[C@@]3(C)[C@]1(C)CC2,40% human serum,92HT599,MT-2,,0.05–0.1 µM
O=C1c2ccccc2N(Cc2ccccc2-c2ccccc2)S(=O)(=O)N1Cc1ccccc1,,IIIB,MT-4,,12 µM
CNC(=O)c1[nH]c(=O)c(O)c2c1CCN(Cc1ccc(F)cc1)C2=O,,,MT-4,,<10 µM
CCN1c2ncc(CCOc3ccc(C(=O)O)c4c3CCCC4)cc2C(=O)N(C)c2ccc(Cl)nc21,,WT,C8166,,<0.1 µM
CC(C)Nc1cccnc1N(C)CCCCN(C)C(=O)c1cc2ccccc2[nH]1,,D34,PBMC,,<0.01 µM
COc1ccc(-c2c(C)nc3c(N4CC[C@@H](NS(=O)(=O)c5ccccc5)C4)cc(C)nn23)cc1OC,,,H9,,0.5 µM
C=C1CN(S(=O)(=O)c2ccc(C)cc2)CCCN(C(C)CC)CCCN(S(=O)(=O)c2ccc(C)cc2)C1,,NL4-3,MT-4,,3.52 µM
O=C1c2ccccc2N(COCc2ccccc2)S(=O)(=O)N1COCc1ccccc1,,IIIB,MT-4,,>44 µM
COc1ccc(-c2c(C)nc3c(N4CC[C@@H](NC(=O)Nc5ccccc5)C4)cc(C)nn23)cc1OC,,,H9,,0.2 µM
COc1cc([C@H]2c3c(cc(OC)c(OC)c3OC)C[C@H]3CSC[C@@H]32)cc(OC)c1OC,,IIIB,H9,,0.15 µM
CC(=O)N[C@@H](CC(=O)O)C(=O)N[C@H](C(=O)N[C@H](C(=O)N1CCC[C@H]1C(=O)N[C@@H](C)C(N)=O)[C@@H](C)O)[C@@H](C)O,7 d,JR-CSF,PBMC (PHA stimulated) + PBMC,,>0.1 µM
O=C1c2ccccc2N(Cc2ccccc2)S(=O)(=O)N1Cc1ccc(Cl)cc1,,IIIB,MT-4,,18.4 µM
Nc1nc(N)c2ncn([C@@H]3O[C@H](CO)C[C@@H]3F)c2n1,,LAI,PBL(PHA STIM.) + PBL,,<6.4 µM
C=C1CN(S(=O)(=O)c2ccc(C)cc2)CCCN(C(=O)OCCC)CCCN(S(=O)(=O)c2ccc(C)cc2)C1,,NL4-3,MT-4,,2.6 µM
Nc1nccc2c1ncn2[C@@H]1C[C@H](CO)[C@@H](O)[C@H]1O,,A012,PBMC,,0.14 µM
Nc1ncnc2c1ncn2C1OC(COP(=O)(O)OC2C(O)C(COP(=O)(O)OC3CC(CO)OC3n3cnc4c(N)ncnc43)OC2n2cnc3c(N)ncnc32)CC1O,,IIIB,H9,,<1 µM
CN(C[C@@H](CCN1CCC(CCCc2ccccc2)CC1)c1cccc(Cl)c1)S(=O)(=O)c1ccccc1,,YU2,PBMC,,<50 µM
Nc1ncnc2c1ncn2[C@@H]1O[C@H](COP(=O)([O-])O[C@@H]2C[C@@H](COP(=O)([O-])O[C@@H]3C[C@@H](COP(=O)([O-])O)O[C@H]3n3cnc4c(N)ncnc43)O[C@H]2n2cnc3c(N)ncnc32)[C@@H](O)[C@H]1O,,IIIB,H9,,>1 µM
OCCC#Cc1nc(-c2ccc(F)cc2)c(-c2ccncc2)n1CCCc1ccccc1,,89.6,Mono Mac 6,,1 µM
C=C1CN(S(=O)(=O)c2ccc(C)cc2)CCCN(CC2CCCCC2)CCCN(S(=O)(=O)c2ccc(C)cc2)C1,,NL4-3,MT-4,,0.29 µM
CC(C)CN(C[C@@H](O)[C@H](Cc1ccccc1)NC(=O)O[C@H]1CCOC1)S(=O)(=O)c1ccc(N)cc1,,IIIB,MT-4,,<0.08 µM
Cc1ccc(N2C(=O)/C(=C/c3ccc(-c4ccc(Cl)c(C(=O)O)c4)o3)SC2=S)c(C)c1,,IIIB,MT-2,,0.298 µM
O=C1c2c(O)cc(O)cc2O[C@]12c1c(cc(O)c3c1O[C@H](c1ccc(O)cc1)CC3)O[C@H]2c1ccc(O)cc1,,IIIB,MOLT-4/HIV-1(IIIB) + MOLT-4,,>30 µg/mL
Nc1ccc2c(O)c(Br)c(S(=O)(=O)O)cc2c1Br,,BaL,PBMC,,~125 µM
CC(=O)c1ccc(C)cc1NC(C(N)=O)c1c(Cl)cccc1Cl,,IIIB,PBL,,0.014 µM
O=C(c1c(O)cc(O)cc1O)c1c(-c2ccc(O)cc2)oc2cc(O)c3c(c12)O[C@H](c1ccc(O)cc1)CC3,,IIIB,MOLT-4/HIV-1(IIIB) + MOLT-4,,>30 µg/mL
CCCCCCCCCCCCCCCCCCCCCC(=O)OC[C@H](CO[C@]1(C(=O)O)C[C@H](OS(=O)(=O)O)[C@@H](OS(=O)(=O)O)[C@H]([C@H](OS(=O)(=O)O)[C@@H](COS(=O)(=O)O)OS(=O)(=O)O)O1)OC(=O)CCCCCCCCCCCCCCCCCCCCC,,IIIB,H9,,4 µM
C=C1CN(S(=O)(=O)c2ccc(N)cc2)CCCN(Cc2ccccc2)CCCN(S(=O)(=O)c2ccc(N)cc2)C1,,NL4-3,MT-4,,>15 µM
CCCCCCCCCCCCCCOC[C@H](CO[C@]1(C(=O)O)C[C@H](OS(=O)(=O)O)[C@@H](NC(C)=O)[C@H]([C@H](OS(=O)(=O)O)[C@@H](COS(=O)(=O)O)OS(=O)(=O)O)O1)OCCCCCCCCCCCCCC,,IIIB,H9,,16 µM
O=C1c2ccccc2N(CC2CCCCC2)S(=O)(=O)N1Cc1ccccc1,,IIIB,CEM + CEM-SS,,3 µM
CCN1c2ncc(CCOc3ccc(CC(=O)NN)c4ccccc34)cc2C(=O)N(C)c2cccnc21,,,C8166,RT-K103N Y181C,<0.1 µM
CCN(CC)C(=O)c1c2c(c(O)c(=O)n1C)C(=O)N(Cc1ccc(F)cc1)CC2,,,MT-4,,<10 µM
C[C@H](NC(=O)[C@@H]1CCCN1C(=O)[C@@H](NC(=O)[C@@H](NC(=O)[C@H](CC(=O)O)NC(=O)[C@@H](N)CO)[C@@H](C)O)[C@@H](C)O)C(=O)O,7 d,JR-CSF,PBMC (PHA stimulated) + PBMC,,>0.1 µM
COc1ccc(-c2c(C)nc3c(N4CC[C@@H](NS(C)(=O)=O)C4)cc(C)nn23)cc1F,,,H9,,0.1 µM
Nc1nccc2c1ncn2[C@H]1CC[C@@H](CO)C1,,A012,PBMC,,3.7 µM
CN(C)C(=O)c1c2c(c(O)c(=O)n1C)C(=O)N(Cc1ccc(F)cc1)CC2,,,MT-4,,<10 µM
CC(C)=CCOc1cc(NC(=S)c2ccsc2C)ccc1Cl,,NL4-3,CEM + CEM-SS,RT-V179D,0.006 µM
C=C1CN(S(=O)(=O)c2ccc(C)cc2)CCCN(CC(C)CC)CCCN(S(=O)(=O)c2ccc(C)cc2)C1,,NL4-3,MT-4,,0.98 µM
CCN1c2ncc(CCOc3ccc(/C=C(\C)C(=O)O)c4ccccc34)cc2C(=O)Nc2c(C)cc(Cl)nc21,,,C8166,RT-K103N Y181C,0.1–1 µM
CC(=O)N[C@@H]1CCN(c2cc(C)nn3c(C)c(C)nc23)C1,,,H9,,>1 µM
CCN1c2ncc(CCOc3ccc(C(=O)O)c4c3CCC4)cc2C(=O)N(C)c2ccc(Cl)nc21,,,C8166,RT-K103N Y181C,<0.1 µM
Nc1nccc2c1ncn2[C@H]1CC[C@@H](CO)O1,,A012,PBMC,,4.8 µM
COc1cc([C@H]2c3c(cc4c(c3OC)OCO4)C[C@H]3COC(=O)[C@@H]32)cc(C)c1OC,,IIIB,H9,,3.62 µM
CN1N=C(N)c2cn([C@@H]3O[C@H](COP(=O)(O)O)[C@@H](O)[C@H]3O)c3ncnc1c23,,IIIB,H9,,0.03 µM
COc1ccc(-c2c(C)nc3c(N4CC[C@@H](NC(=O)C5CCCCC5)C4)cc(C)nn23)cc1,,,H9,,0.7 µM
O=C(OC1[C@H](OC(=O)c2cc(O)c(O)c(O)c2)CC(OC(=O)c2cc(O)c(O)c(O)c2)(C(=O)O)C[C@H]1OC(=O)c1cc(O)c(O)c(O)c1)c1cc(O)c(O)c(O)c1,,IIIB,H9,,<25 µM
Cn1cc(C(=O)O)c(=O)c2cc(F)c(N3CC=C(c4ccccc4)CC3)c(C(F)(F)F)c21,,IIIB,CEM,,0.15 µM
CCCc1cn([C@@H]2C[C@H](F)[C@@H](CO)O2)c(=O)[nH]c1=O,,IIIB,H9,,2.5 µM
COc1ccccc1N1C(=O)/C(=C/c2ccc(-c3cccc(C(=O)O)c3)o2)SC1=S,,IIIB,MT-2,,2.65 µM
Nc1ncnc2c1ncn2[C@@H]1C=C(CO)[C@@H](O)[C@H]1O,,A018,PBMC,,0.018 µM
CC(C)(C)CNc1cccnc1N1CCN(C(=O)c2cc3ccccc3[nH]2)CC1,,D34,PBMC,,10 µM
CC1(C)Oc2ccc3ccc(=O)oc3c2[C@@H](OC(=O)C23CCC(C)(C(=O)O2)C3(C)C)[C@H]1OC(=O)C12CCC(C)(C(=O)O1)C2(C)C,,RTMDR1,MT-4,RT-M41L L74V V106A T215Y,7 µM
CC(=O)N(C)c1c2c(c(O)c(=O)n1C)C(=O)N(Cc1ccc(F)cc1)CC2,,,MT-4,,<10 µM
COc1ccccc1N1C(=O)S/C(=C\c2ccc(-c3cccc(C(=O)O)c3)o2)C1=O,,IIIB,MT-2,,0.5453 µM
Nc1nc2c(ncn2[C@@H]2O[C@H](CO)C[C@@H]2F)c(=O)[nH]1,,LAI,PBL(PHA STIM.) + PBL,,<7.1 µM
COc1ccc(-c2c(C)nc3c(N4CCN(C(=O)C5CCCCC5)CC4)cc(C)nn23)cc1OC,,,H9,,2 µM
C[C@H]1[C@@H](OC(=O)CCC(=O)O)O[C@@H]2O[C@@]3(C)CC[C@H]4[C@H](C)CC[C@@H]1[C@@]24OO3,,NL4-3,Jurkat cells,,~0.6 µM
CCN1c2ncc(CCOc3ccc(CC(C)C(=O)O)c4ccccc34)cc2C(=O)N(C)c2ccc(Cl)nc21,,,C8166,RT-K103N Y181C,<0.1 µM
Cc1cccc2[nH]c(C(=O)N3CCN(c4ncccc4NC(C)C)CC3)cc12,,D34,PBMC,,0.01 µM
CN1C(C(=O)Nc2ccccn2)=C(O)c2ccccc2S1(=O)=O,,MN,Jurkat cells,,>50 µM

The first 4 rows once more:

{"SMILES": "CC(C)(CN1CCCCC1)NC(=O)[C@]12CC[C@@H](C3(C)CC3)[C@@H]1[C@H]1CC[C@@H]3[C@@]4(C)CC[C@H](OC(=O)CC(C)(C)C(=O)O)C(C)(C)[C@@H]4CC[C@@]3(C)[C@]1(C)CC2", "conditions": "40% human serum", "strain or isolate": "92HT599", "cells": "MT-2", "result": "0.05–0.1 µM"}
{"SMILES": "O=C1c2ccccc2N(Cc2ccccc2-c2ccccc2)S(=O)(=O)N1Cc1ccccc1", "strain or isolate": "IIIB", "cells": "MT-4", "result": "12 µM"}
{"SMILES": "CNC(=O)c1[nH]c(=O)c(O)c2c1CCN(Cc1ccc(F)cc1)C2=O", "cells": "MT-4", "result": "<10 µM"}
{"SMILES": "CCN1c2ncc(CCOc3ccc(C(=O)O)c4c3CCCC4)cc2C(=O)N(C)c2ccc(Cl)nc21", "strain or isolate": "WT", "cells": "C8166", "result": "<0.1 µM"}

Conditions beyond the fields shown may differ between rows. ECn is the concentration giving n% inhibition of infection, replication or growth. Blank or dashed fields: not listed here.